Laboratory results from patent publication US6017542, “Nucleotide and amino acid sequences of canine herpesvirus GD and uses therefor” (dated 2000).

Target: rabies virus glycoprotein G (rabies virus) (UniProt P03524)

Question: Which Rabies serum-neutralizing antibody (RFFI test), day 0 (International Units) does the source give for “sera of squirrel monkeys inoculated with parental ALVAC only (before ALVAC-RG)” here?
Answer: < 1.2
